For one molecule, taste results are on record in patent publication US4640910A (Abbott Laboratories, priority 1985, dated 1987).

SMILES strings stand for the structures.

A short description of this data set: Taste test of aqueous suspensions by four tasters. As to conditions: suspended in water.

Turning to `CC[C@H]1OC(=O)[C@H](C)[C@@H](O[C@H]2C[C@@](C)(OC)[C@@H](O)[C@H](C)O2)[C@H](C)[C@@H](O[C@@H]2O[C@H](C)C[C@H](N(C)C)[C@H]2O)[C@](C)(OC)C[C@@H](C)C(=O)[C@H](C)[C@@H](O)[C@]1(C)O` [6-O-methyl erythromycin A, reference compound], the taste entry is given as “extremely bitter”.
